Measured values from several laboratories, pooled; numbers as filed in NIAID ChemDB.

Common to all: whole-cell or culture tests

ECn is the concentration giving n% inhibition of infection, replication or growth. Percent inhibition refers to the dose given; in toxicity tests it is the harm to the cells. Lines come from different laboratories, so protocols vary. A number after MIC or MFC names an inhibition level or a share of isolates.

{"SMILES": "O=S(=O)([O-])c1cc(S(=O)(=O)[O-])c2cc(NS(=O)(=O)c3ccccc3)ccc2c1", "species": "Herpes simplex virus", "tested at": "5 µg/mL", "cells": "Human conjunctiva cells", "endpoint": "inhibition", "read by": "cytopathic effect", "result": "0%"}
{"SMILES": "Cc1nc(NCCCCNc2ccnc3cc(Cl)ccc23)nc(-c2ccccc2[N+](=O)[O-])c1C(=O)OC(C)C", "species": "Cryptococcus neoformans", "endpoint": "MIC99", "strain": "C-3-1", "result": "2 µg/mL"}
{"SMILES": "O=[N+]([O-])c1cc([N+](=O)[O-])c2ccc(S(=O)(=O)O)cc2c1O", "species": "Herpes simplex virus", "tested at": "10 µg/mL", "cells": "Human conjunctiva cells", "endpoint": "inhibition", "read by": "cytopathic effect", "result": "20%"}
{"SMILES": "OC[C@H]1O[C@@H](n2c(Br)nc3cc(Cl)c(Cl)cc32)[C@H](O)[C@@H]1O", "species": "Human cytomegalovirus", "endpoint": "EC95", "read by": "virus yield", "strain": "C4 (D341E)", "result": "6.8 µM"}
{"SMILES": "Cc1cc(-c2ccc(N=Nc3ccc4c(S(=O)(=O)O)cc(S(=O)(=O)O)c(N)c4c3O)c(C)c2)ccc1N=Nc1ccc2c(S(=O)(=O)O)cc(S(=O)(=O)O)c(N)c2c1O", "species": "Rhinovirus", "tested at": "50 µg/mL", "cells": "Human embryonic lung cells", "endpoint": "inhibition", "read by": "cytopathic effect", "result": "20%"}
{"SMILES": "CCCC(CCC)C(NC(C)=O)C1C(N=C(N)N)CC(C(=O)O)C1O", "species": "Influenza A virus", "cells": "MDCK", "endpoint": "EC50", "strain": "Influenza A/Washington/897/80 (H3N2)", "result": "<0.01 µM"}
{"SMILES": "Nc1ccccc1S(=O)(=O)O", "species": "Adenovirus", "tested at": "5 µg/mL", "cells": "Human embryonic lung cells", "endpoint": "inhibition", "read by": "cytopathic effect", "strain": "TYPE 3", "result": "0%"}
{"SMILES": "C/C=C\\[C@@H]1C[C@H](C(=O)O)N[C@H]1[C@@H](NC(C)=O)[C@](C)(CCC)OC", "species": "Influenza A virus", "cells": "MDCK", "endpoint": "EC50", "read by": "plaque count", "strain": "H1N1 isolate C1D", "result": "≤0.025 µg/mL"}
{"SMILES": "O=c1[nH]c(=O)n([C@H]2C[C@H](O)[C@@H](CO)O2)cc1I", "species": "Cytomegalovirus", "endpoint": "MIC", "strain": "TOWNE", "result": "45 µg/mL"}
{"SMILES": "CO[C@H]1/C=C/O[C@@]2(C)Oc3c(C)c(O)c4c(O)c(c(/C=N/N5CCN(C6CCCC6)CC5)c(O)c4c3C2=O)NC(=O)/C(C)=C\\C=C\\[C@H](C)[C@H](O)[C@@H](C)[C@@H](O)[C@@H](C)[C@H](OC(C)=O)[C@@H]1C", "species": "Mycobacterium avium intracellulare", "endpoint": "MIC", "strain": "420", "result": "2 µg/mL"}
{"SMILES": "Cc1cc(CCCOc2c(C)cc(-c3noc(C(F)(F)F)n3)cc2C)on1", "species": "Rhinovirus", "cells": "OHIO HELA-I", "endpoint": "EC50", "read by": "cytopathic effect / visual reading", "strain": "Isolate 45", "result": ">10 µg/mL"}
{"SMILES": "CCOC(=O)c1ccc(OCCC2CCN(c3ccc(C)nn3)CC2)cc1", "species": "Rhinovirus", "cells": "KB", "endpoint": "EC50", "read by": "neutral red", "strain": "50-525-CV54 (ICAM-1 receptor group 85)", "result": "0.054 µM"}
{"SMILES": "O=[N+]([O-])c1ccc(C=Nc2ccccc2O)cc1", "species": "Cryptococcus gattii", "endpoint": "MIC99", "strain": "LMM 818", "result": "8 µg/mL"}
{"SMILES": "O=C(Nc1ccc(S(=O)(=O)[O-])c2cccc(S(=O)(=O)[O-])c12)c1ccccc1", "species": "Herpes simplex virus", "tested at": "50 µg/mL", "cells": "Human conjunctiva cells", "endpoint": "inhibition", "read by": "cytopathic effect", "result": "0%"}
{"SMILES": "Nc1ncnc2c1ncn2C[C@@H](CO)OCP(=O)(O)O", "species": "Varicella zoster virus", "cells": "HEL", "endpoint": "EC50", "read by": "cytopathic effect", "strain": "Oka penciclovir-resistant/B", "result": "0.017 µM"}
{"SMILES": "CCC(CC)[C@H](NC(C)=O)[C@@H]1[C@H](O)[C@@H](C(=O)O)C[C@H]1N=C(N)N", "species": "Influenza A virus", "cells": "MDCK", "endpoint": "EC50", "strain": "H1N1 A/PR/8/34", "result": "1.5 µM"}
{"SMILES": "O=S(=O)([O-])c1ccc2c(NS(=O)(=O)c3ccccc3)cc(S(=O)(=O)[O-])cc2c1", "species": "Adenovirus", "tested at": "5 µg/mL", "cells": "Human embryonic lung cells", "endpoint": "inhibition", "read by": "cytopathic effect", "strain": "TYPE 3", "result": "23%"}
{"SMILES": "Nc1nc2c(ncn2CCC(CO)CO)c(=O)[nH]1", "species": "Varicella zoster virus", "cells": "HEL", "endpoint": "EC50", "read by": "cytopathic effect", "strain": "Clinical isolate VZV-16", "result": "3.65 µM"}
{"SMILES": "CC(N)C12CC3CC(CC(C3)C1)C2", "species": "Influenza A virus", "cells": "MDCK", "endpoint": "EC50", "read by": "ELISA", "strain": "Influenza A H3N2 isolate 53", "result": "13.3 µg/mL"}
{"SMILES": "Nc1ccn(C[C@@H](CO)OCP(=O)(O)O)c(=O)n1", "species": "Varicella zoster virus", "cells": "HEL", "endpoint": "EC50", "read by": "cytopathic effect", "strain": "Oka CF1742-resistant", "result": "0.29 µM"}
{"SMILES": "Nc1ncnc2c1ncn2C=C1CC1CO", "species": "Human cytomegalovirus", "endpoint": "EC90", "read by": "plaque count", "strain": "VR5611 (ganciclovir-susceptible)", "result": "5 µM"}
{"SMILES": "CCOC(=O)c1c(C)nc(NCCCNc2ccnc3cc(Cl)ccc23)nc1-c1ccccc1", "species": "Cryptococcus neoformans", "endpoint": "MIC99", "strain": "VM-MCMMPI", "result": "8 µg/mL"}
{"SMILES": "NCS(=O)(=O)O", "species": "Adenovirus", "tested at": "5 µg/mL", "cells": "Human amnion AV3 cells", "endpoint": "inhibition", "read by": "cytopathic effect", "strain": "TYPE 3", "result": "0%"}
{"SMILES": "Oc1ccccc1N=Cc1cccc(O)c1O", "species": "Cryptococcus gattii", "endpoint": "MIC99", "strain": "547/OTTI-97-PI-10", "result": "5.7 µg/mL"}
{"SMILES": "CC(C)Nc1nc2cc(Cl)c(Cl)cc2n1[C@H]1O[C@@H](CO)[C@H](O)[C@@H]1O", "species": "Human cytomegalovirus", "cells": "MRC-5", "endpoint": "EC50", "read by": "hybridisation", "strain": "C8301", "result": "0.04 µM"}
{"SMILES": "Cc1ccc(-n2cc(C(C)(C)O)nn2)cc1C", "species": "Candida parapsilosis", "tested at": "2048 µg/mL", "endpoint": "inhibition", "read by": "broth dilution", "strain": "ATCC 22019", "result": "0%"}
{"SMILES": "O=C(O)P(=O)(O)O", "species": "Varicella zoster virus", "cells": "HEL", "endpoint": "EC50", "read by": "cytopathic effect", "strain": "Clinical isolate VZV-31", "result": "72.9 µM"}
{"SMILES": "C=CCc1ccc(O)c(OC)c1", "species": "Candida tropicalis", "endpoint": "MIC90", "read by": "turbidity", "strain": "2852", "result": "500 µg/mL"}
{"SMILES": "CC(C)(O)c1cn(-c2cccc3ccccc23)nn1", "species": "Candida parapsilosis", "tested at": "2048 µg/mL", "endpoint": "inhibition", "read by": "broth dilution", "strain": "URM 3624", "result": "0%"}
{"SMILES": "CC(=O)N[C@H]1[C@H]([C@H](O)[C@H](O)CO)OC(C(=O)O)=C[C@@H]1N=C(N)N", "species": "Influenza A virus", "cells": "MDCK", "endpoint": "EC50", "strain": "H3N2 A/X-31", "result": "0.4 µM"}
{"SMILES": "CC(C)(O)c1cn(-c2ccc([N+](=O)[O-])cc2)nn1", "species": "Candida parapsilosis", "tested at": "2048 µg/mL", "endpoint": "inhibition", "read by": "broth dilution", "strain": "URM 4607", "result": "0%"}
{"SMILES": "Nc1nc2c(ncn2COC(CO)CO)c(=O)[nH]1", "species": "Human cytomegalovirus", "cells": "MRC-5", "endpoint": "EC50", "read by": "hybridisation", "strain": "4955REC (THR700ALA)", "result": "0.7 µM"}
{"SMILES": "Nc1nc2c(ncn2COC(CO)CO)c(=O)[nH]1", "species": "Varicella zoster virus", "cells": "HEL", "endpoint": "EC50", "read by": "cytopathic effect", "strain": "Oka PMEA-resistant", "result": "1.4 µM"}
{"SMILES": "CC(C)(O)c1cn(-c2ccc(Cl)cc2)nn1", "species": "Candida parapsilosis", "endpoint": "MIC", "read by": "broth dilution", "strain": "URM 4261", "result": "256 µg/mL"}

The last 4 rows once more:

{"SMILES": "CC(C)(O)c1cn(-c2ccc([N+](=O)[O-])cc2)nn1", "species": "Candida parapsilosis", "tested at": "2048 µg/mL", "endpoint": "inhibition", "read by": "broth dilution", "strain": "URM 4607", "result": "0%"}
{"SMILES": "Nc1nc2c(ncn2COC(CO)CO)c(=O)[nH]1", "species": "Human cytomegalovirus", "cells": "MRC-5", "endpoint": "EC50", "read by": "hybridisation", "strain": "4955REC (THR700ALA)", "result": "0.7 µM"}
{"SMILES": "Nc1nc2c(ncn2COC(CO)CO)c(=O)[nH]1", "species": "Varicella zoster virus", "cells": "HEL", "endpoint": "EC50", "read by": "cytopathic effect", "strain": "Oka PMEA-resistant", "result": "1.4 µM"}
{"SMILES": "CC(C)(O)c1cn(-c2ccc(Cl)cc2)nn1", "species": "Candida parapsilosis", "endpoint": "MIC", "read by": "broth dilution", "strain": "URM 4261", "result": "256 µg/mL"}